Results of unrelated studies side by side (data: NIAID ChemDB).

Common to all: cytotoxicity tests; read-out: CC50

An empty or dashed field is not shown. Lines come from different laboratories, so protocols vary. CCn is the concentration with n% toxicity to the cells.

{"smiles": "C[C@@H]1[C@H](O)[C@@H](CO)O[C@H]1n1ccc(N)nc1=O", "cell line": "VERO 76", "read by": "MTT / crystal violet", "value": ">100 µg/mL"}
{"smiles": "Cc1onc(-c2nn(C)c(C)c2[N+](=O)[O-])c1[N+](=O)[O-]", "cell line": "MIT-4", "value": ">200 µM"}
{"smiles": "CC(C)[C@H](NC(=O)[C@H](Cc1cccc2ccccc12)CS(=O)(=O)C(C)(C)C)C(=O)N[C@@H](Cc1ccccc1)[C@H](O)[C@H](O)[C@H](Cc1ccccc1)NC(=O)[C@@H](NC(=O)[C@H](Cc1cccc2ccccc12)CS(=O)(=O)C(C)(C)C)C(C)C", "cell line": "PBLC", "value": ">0.217 µM"}
{"smiles": "Cc1ccnc2c1NC(=O)c1cccnc1N2C1CC1", "cell line": "HuT-78", "read by": "MTT / microscopy", "value": ">7.5 µM"}
{"smiles": "Nc1nc2c(ncn2COC(CO)CO)c(=O)[nH]1", "cell line": "P3HR-1", "value": "200 µM"}
{"smiles": "Cc1cc(-c2nn(C)c(C)c2N=O)no1", "cell line": "MIT-4", "value": "9.1 µM"}
{"smiles": "COc1cc2c(cc1OC)C(CC1(C)OCCO1)=NCC2", "cell line": "BJ", "value": "<7.5 µM"}
{"smiles": "CC1c2ccccc2CN1S(=O)(=O)c1ccc2[nH]c(=O)[nH]c2c1", "cell line": "MT-2 human T-cells", "read by": "MTT", "value": "2.1 µM"}
{"smiles": "CCCCn1nc(C)c(N=O)c1-c1cc(C)on1", "cell line": "MIT-4", "value": "15 µM"}
{"smiles": "Nc1nc(OC[C@H]2CC[C@@H](CO)O2)c2[nH]cnc2n1", "cell line": "CAKI-1", "value": "183 µM"}
{"smiles": "O=c1[nH]c(=O)n([C@@H]2O[C@H](CO)[C@@H](O)[C@@H]2F)cc1I", "cell line": "P3HR-1", "value": "1 µM"}
{"smiles": "C[C@@]1(O)[C@H](O)[C@@H](CO)O[C@H]1n1cnc2c(=O)[nH]c(N)nc21", "cell line": "Madin-Darby bovine kidney", "read by": "MTT / crystal violet", "value": ">100 µg/mL"}
{"smiles": "Nc1nc(N)nc(OC[C@H]2CC[C@@H](COc3nc(N)nc(N)n3)O2)n1", "cell line": "CAKI-1", "value": "≥250 µM"}
{"smiles": "Cc1ccc(OCCn2ccc(=O)[nH]c2=O)c(Cc2ccccc2)c1", "cell line": "MT-2 human T-cells", "read by": "MTT", "value": "43 µM"}
{"smiles": "CCn1nc(C)cc1-c1cc(C)on1", "cell line": "MIT-4", "value": ">200 µM"}
{"smiles": "CC(C)[C@H](NC(=O)[C@@H](O)Cc1ccccc1)C(=O)N[C@@H](Cc1ccccc1)[C@@H](O)[C@H](O)[C@H](Cc1ccccc1)NC(=O)[C@@H](NC(=O)[C@@H](O)Cc1ccccc1)C(C)C", "cell line": "PBLC", "value": ">0.1 µM"}
{"smiles": "COc1ccc2nc(Cl)c(/C=C/C(=O)c3c4ccccc4cc4ccccc34)cc2c1", "cell line": "CEM", "read by": "MTS", "value": "9.8 µM"}
{"smiles": "CC(C)[C@H](NC(=O)C(Cc1ccccc1)CS(=O)(=O)CCO)C(=O)N[C@@H](Cc1ccccc1)[C@@H](O)[C@H](O)[C@H](Cc1ccccc1)NC(=O)[C@@H](NC(=O)C(Cc1ccccc1)CS(=O)(=O)CCO)C(C)C", "cell line": "PBLC", "value": ">6 µM"}
{"smiles": "Cc1cc(-c2cc(C)on2)n(C)n1", "cell line": "MIT-4", "value": ">200 µM"}
{"smiles": "CC(=O)Nc1nc2c(CC(O)CO)ncn2c(=O)[nH]1", "cell line": "WI-38", "value": ">400 µg/mL"}
{"smiles": "Cc1ccc2nc(Cl)c(/C=C/C(=O)c3sccc3Br)cc2c1", "cell line": "PBMC", "read by": "MTS", "value": "16.1 µM"}
{"smiles": "Nc1ccnc(OC[C@H]2CC[C@@H](CO)O2)n1", "cell line": "CAKI-1", "value": "202 µM"}
{"smiles": "CN1C=CN(c2cccc(N3C=CN(C)C3)n2)C1.[Cl][Au].[Cl][Au]", "cell line": "4T1", "read by": "sulforhodamine / absorbance", "value": ">30 µM"}
{"smiles": "Nc1nc(Cl)cc(OC[C@H]2O[C@H](COCc3ccccc3)[C@@H](OCc3ccccc3)[C@H]2OCc2ccccc2)n1", "cell line": "L1210", "value": ">250 µM"}
{"smiles": "COc1c(C)c2c(c(O)c1CC(=O)O)C(=O)OC2", "cell line": "VERO 76", "read by": "MTT / crystal violet", "value": ">12.5 µg/mL"}
{"smiles": "Nc1nc(Cl)cc(OC[C@H]2CC[C@@H](COCc3ccccc3)O2)n1", "cell line": "PC-3", "value": "115 µM"}
{"smiles": "Cc1nc(C(C)C)c2[nH]c(=S)[nH]c(=O)n12", "cell line": "WI-38", "value": "200 µg/mL"}
{"smiles": "Cc1ccc2nc(Cl)c(/C=C/C(=O)c3ccc4c(c3)OCCO4)cc2c1", "cell line": "CEM", "read by": "MTS", "value": "16.5 µM"}
{"smiles": "COc1ccc(-c2cc(C(=O)O)c3ccccc3n2)cc1OC", "cell line": "BJ", "value": ">20 µM"}
{"smiles": "Nc1cc(OC[C@H]2CC[C@@H](CO)O2)ncn1", "cell line": "L1210", "value": ">250 µM"}
{"smiles": "COc1ccc2nc(Cl)c(/C=C/C(=O)c3sccc3Br)cc2c1", "cell line": "VERO", "read by": "MTS", "value": "9.5 µM"}
{"smiles": "Nc1nc(=O)n([C@@H]2O[C@H](CO)[C@@H](O)[C@@H]2F)cc1I", "cell line": "P3HR-1", "value": "5 µM"}
{"smiles": "CCCn1nc(-c2cc(C)on2)c(N=O)c1C", "cell line": "MIT-4", "value": "14 µM"}
{"smiles": "COc1ccc2nc(Cl)c(/C=C/C(=O)c3sccc3C)cc2c1", "cell line": "VERO", "read by": "MTS", "value": "82.9 µM"}
{"smiles": "CCCn1nc(C)c(N=O)c1-c1cc(C)on1", "cell line": "MIT-4", "value": "20 µM"}
{"smiles": "CC(C)N(Cc1cccc(OCCCCCC(=O)OC(=O)O)c1)C(=O)c1ccccc1", "cell line": "BJ", "value": ">20 µM"}
{"smiles": "Nc1cc(OC[C@H]2CC[C@@H](COCc3ccccc3)O2)nc(N)n1", "cell line": "PC-3", "value": "130 µM"}
{"smiles": "C=CCc1nc(C)n2c(=O)[nH]c(NC(C)=O)nc12", "cell line": "PRK", "value": "200 µg/mL"}
{"smiles": "Oc1cccc(Nc2ncnc3sc(-c4ccccc4)cc23)c1", "cell line": "MT-2 human T-cells", "read by": "MTT", "value": "14 µM"}
{"smiles": "CCn1nc(C)c(N=O)c1-c1cc(C)on1", "cell line": "MIT-4", "value": "42 µM"}

A second listing of 5 rows from above:

smiles,cell line,read by,value
COc1cc2c(cc1OC)C(CC1(C)OCCO1)=NCC2,BJ,-,<7.5 µM
C[C@@]1(O)[C@H](O)[C@@H](CO)O[C@H]1n1cnc2c(=O)[nH]c(N)nc21,Madin-Darby bovine kidney,MTT / crystal violet,>100 µg/mL
Cc1ccc2nc(Cl)c(/C=C/C(=O)c3ccc4c(c3)OCCO4)cc2c1,CEM,MTS,16.5 µM
CC(=O)Nc1nc2c(CC(O)CO)ncn2c(=O)[nH]1,WI-38,-,>400 µg/mL
COc1ccc2nc(Cl)c(/C=C/C(=O)c3sccc3Br)cc2c1,VERO,MTS,9.5 µM